Test results from patent US20190298735A1, “TREATMENT AND PREVENTION OF CLOSTRIDIUM DIFFICILE COLITIS USING MISOPROSTOL” (Vanderbilt University, priority 2016, published 2019).

System: gut microbiome
Experiment: Gut microbiome diversity, 16S rRNA sequencing of cecal contents
Assay type: in vivo, mice
Details: indomethacin 10 mg/kg/d by gavage for 2 days, inverse Simpson index

## COc1ccc2c(c1)c(CC(=O)O)c(C)n2C(=O)c1ccc(Cl)cc1 [indomethacin]
  microbial diversity in the colon (gut microbiome): significantly altered microbial diversity
Listed as Indomethacin
  microbial diversity in the colon (gut microbiome): alters gut microbiome
